Source: PMC2711989 (Cancer research, 2009)

Assays:
[1] = system: BxPC-3 cell line; test: Radiotracer cell binding and internalization, BxPC-3 cells; type: cell-based, human; conditions: BxPC-3, one minute, mean ± SD, n = 4
Method in brief: (§1)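 3.75 × 10^6 cells were incubated with 0.2 μCi radiotracer in serum-free medium, pH 7.2, over a time course or for 1 h, n = 4 per cell line per time point. Bound fraction was γ-counted as cell pellet vs supernatant. Acid wash (0.2 mol/L sodium acetate, 0.5 mol/L NaCl, pH 2.5, 4°C) then released surface activity; internalized fraction was pellet vs released activity.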

[2] = system: DX3puroβ6 cell line; test: Radiotracer cell binding and internalization, DX3puroβ6 cells; type: cell-based, human; conditions: mean ± SD, n = 4
Method in brief: as §1

## CC(C)C[C@H](NC(=O)[C@H](CC(=O)O)NC(=O)CNC(=O)[C@H](CCCNC(=N)N)NC(=O)[C@H](CC(C)C)NC(=O)[C@H](CC(N)=O)NC(=O)[C@@H]1CCCN1C(=O)[C@@H](NC(=O)[C@H](C)NC(=O)[C@H](CC(N)=O)NC(=O)CCOCCOCCOCCOCCOCCOCCOCCOCCOCCOCCOCCOCCOCCOCCOCCOCCOCCOCCOCCOCCOCCOCCOCCOCCOCCOCCOCCOCCNC(=O)c1ccc(F)cc1)C(C)C)C(=O)N[C@@H](CCC(N)=O)C(=O)N[C@H](C(=O)N[C@@H](CC(C)C)C(=O)N[C@@H](C)C(=O)N[C@@H](CCC(N)=O)C(=O)N[C@@H](CCCCN)C(=O)N[C@H](C(=O)N[C@@H](C)C(=O)N[C@@H](CCCNC(=N)N)C(=O)N[C@H](C(N)=O)[C@@H](C)O)C(C)C)C(C)C [[^18F]FBA-PEG28-A20FMDV2]
[1]
  radiotracer bound to cells within one minute: 24.5 ± 1.2% and ~25%
[2]
  radiotracer bound to cells within one minute: 30.5 ± 2.7%

Values joined by “and” are separate entries in the source; they are usually repeats but may differ in a detail not shown here. Identical values can stand only once.
